Biological target: Human ACE2-Fc (human) (UniProt Q9BYF1)

**Q.** “recombinant receptor-binding domain (RBD) protein of SARS-CoV-2 spike protein (ligand)” was tested. Which koff did it give?
**A.** 0.0205 s⁻¹

**Q.** What about the kon of the same substance?
**A.** 1.33e+07 M⁻¹ s⁻¹
